# In article PMC3404956, “A Quorum Sensing-Disrupting Brominated Thiophenone with a Promising Therapeutic Potential to Treat Luminescent Vibriosis”:
# The chains behind the UniProt entries cited, without tags or fusion partners. Where a name states a change or a piece, a line headed by the entry shows the natural chain unless it says otherwise.
# UniProt P21308: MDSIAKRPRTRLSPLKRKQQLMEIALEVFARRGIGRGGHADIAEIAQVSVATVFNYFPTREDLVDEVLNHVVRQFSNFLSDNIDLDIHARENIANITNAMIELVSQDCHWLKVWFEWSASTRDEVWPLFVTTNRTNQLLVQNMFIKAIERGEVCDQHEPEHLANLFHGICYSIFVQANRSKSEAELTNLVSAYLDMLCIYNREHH
# Target: GST-LuxR (Vibrio harveyi) (UniProt P21308)
# Experiment: fluorescence anisotropy
# Settings: 30°C, annealing in NaCl-Tris-EDTA buffer, ex 480 nm, em 535 nm, recombinant protein, label: 5'-fluorescein on strand 1
sequence,measurement,setting,value
TATTGATAAATTTATCAATAA (double strand) [V. harveyi consensus LuxR binding sequence],binding result,"10 µM thiophenone TF101, Kd value only in Figure 4B",binds more weakly
same,binding result,"10 µM thiophenone TF310, Kd value only in Figure 4B",binds more weakly

# Construct, isoform or probe ends are uncertain for at least one entry. Weaker means in comparison with the reference protein, sequence or condition of that experiment.
